Mutational interference map of HIV-1 RNA dimerization

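Randomly mutated transcripts starting with one, two or three G (1G, 2G, 3G), capped or uncapped, were folded for 30 min at 37 °C. Monomer and dimer bands were cut from native gels after folding in high salt (300 mM KCl, 5 mM MgCl2) or low salt (40 mM KCl, 0.1 mM MgCl2). Kdimer compares mutation frequencies in monomer and dimer, corrected for sequencing errors.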

RNA: 5' end of the HIV-1 NL4-3 genome, made in vitro. Positions 1-437 read:
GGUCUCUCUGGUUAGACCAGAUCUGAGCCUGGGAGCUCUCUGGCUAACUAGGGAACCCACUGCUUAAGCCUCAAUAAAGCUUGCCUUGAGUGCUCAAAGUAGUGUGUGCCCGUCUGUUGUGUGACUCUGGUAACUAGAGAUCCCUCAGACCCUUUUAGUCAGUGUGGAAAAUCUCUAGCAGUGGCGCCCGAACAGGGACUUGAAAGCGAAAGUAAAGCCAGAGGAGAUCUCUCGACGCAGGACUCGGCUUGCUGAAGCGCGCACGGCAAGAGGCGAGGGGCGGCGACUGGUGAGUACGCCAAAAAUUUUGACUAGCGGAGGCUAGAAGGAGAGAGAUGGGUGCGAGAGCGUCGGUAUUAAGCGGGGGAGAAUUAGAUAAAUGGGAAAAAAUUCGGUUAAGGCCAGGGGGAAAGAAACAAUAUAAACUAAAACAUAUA

Scale: median log2 Kdimer over the changes at a position; positive = changes inhibit dimerization, negative = changes enhance it.
Sample: 1G uncapped high-salt.
One numbering serves 1G, 2G and 3G.
A position is written with its base where known.
The source gives no letters past position 437.

C284 (domain SL2) read 0.59.
A388 read 0.06.
C260 (domain SL1) read 5.15.
A332 read 0.12.
position 507 read 0.08.
position 488 read 0.10.
C349 read -0.20.
C362 read 0.26.
G270 (domain SL1) read 1.05.
A227 (domain CU) read 0.75.
A311 read 0.55.
U115 read -0.04.
position 503 read -0.02.
C173 (domain PBS) read -0.02.
C299 (domain SL2) read -0.09.
G164 (domain PBS) read -0.02.
A66 (domain PolyA) read 0.22.
position 447 read -0.07.
A225 read -0.04.
position 476 read 0.02.
position 466 read 0.04.
C114 read -0.16.
C193 (domain PBS) read -0.02.
position 478 read 0.05.
position 475 read 0.11.
A147 (domain PBS) read 0.09.
U306 read 0.14.
G240 read -0.01.
C29 (domain TAR) read 0.04.
A235 read -0.82.
A256 (domain SL1) read 1.18.
G395 read 0.06.
G183 (domain PBS) read 0.23.
U131 (domain PAS) read 0.09.
G195 (domain PBS) read 0.31.
A132 (domain PBS) read 0.16.
G181 (domain PBS) read -0.20.
A371 read -0.02.
C264 (domain SL1) read 2.46.
C152 (domain PBS) read -0.05.
A415 read 0.11.
G224 read -0.02.
G246 (domain SL1) read 1.49.
G186 (domain PBS) read 0.02.
A387 read 0.09.
G363 read 0.30.
position 440 read 0.15.
position 489 read 0.18.
C28 (domain TAR) read 0.11.
C352 read 0.11.
C187 (domain PBS) read -0.10.
C218 (domain antiPAS) read -0.35.
G99 (domain PolyA) read 0.17.
G394 read 0.10.
A404 read 0.12.
A47 (domain TAR) read 0.00.
U308 read 0.15.
G265 (domain SL1) read 3.20.
U113 read -0.04.
G257 (domain SL1) read 2.95.
G241 read -0.15.
U309 read 0.02.
C426 read 0.03.
G223 (domain antiPAS) read 0.13.
G208 (domain PBS) read -0.04.
G339 (domain AUG) read 0.29.
A314 (domain SL3) read 0.42.
position 484 read 0.08.

The opening 3 entries, copied out:

- C284 (domain SL2) = 0.59
- A388 = 0.06
- C260 (domain SL1) = 5.15

Source: Ye et al. 2022 (doi:10.1038/s41594-022-00746-2), supplementary data.